Pooled drug test results. Numbers come from NIAID ChemDB, via PubChem.

Shared fields: toxicity to cultured cells; cell line: MDBK; read-out: CC50

CCn: concentration that lowers growth or viability of the cells by n%. Lines come from different laboratories, so protocols vary.

c1ccc(CCOn2ccc3nc(-c4ccccc4)nc-3c2)cc1 ; value: >100 µg/mL
CCOC(=O)c1c(COc2ccccc2)n(C)c2cc(Br)c(O)c(CN(N3CCC(CO)CC3)N3CCC(CO)CC3)c12 ; method: ATP ; value: 20 µM
CC(=O)O[C@@H]1C[C@@H](CO)O[C@H]1n1cc(/C(Cl)=C\I)c(=O)[nH]c1=O ; method: neutral red ; value: >100 µM
O=[N+]([O-])c1ccc2[nH]c(O)c(N=NC(=S)Nc3ccccc3)c2c1 ; value: >50 µg/mL
Brc1ccc(Cn2ccc3nc(CCc4ccccc4)nc-3c2)cc1 ; value: 17 µg/mL
CNC(=S)N=Nc1c(O)n(CN2CCOCC2)c2ccc([N+](=O)[O-])cc12 ; value: 20 µg/mL
c1ccc(CCCCn2ccc3nc(-c4ccccc4)nc-3c2)cc1 ; value: 36 µg/mL
C[C@H]1CC[C@H]2C(C)(C)C(=O)CC[C@]23Oc2c(c(O)cc4c2C(=O)NC4=O)C[C@]13C ; value: 94 µM
Clc1cccc(-c2nc3ccn(Cc4ccc(Br)cc4)cc-3n2)c1 ; value: 62 µg/mL
C[C@H]1CC[C@H]2C(C)(C)[C@@H](O)CC[C@]23Oc2c(c(O)cc4c2CNC4=O)C[C@]13C ; value: 65 µM
CC(=O)O[C@@H]1C[C@@H](CO)O[C@H]1n1cc(C#CI)c(=O)[nH]c1=O ; method: neutral red ; value: >100 µM
CN1Cc2c(O)c(-c3cccnc3)cc3c2c(c(CSc2ccccc2)n3C)C1=O ; method: ATP ; value: 49 µM
CCCCN1C(=O)C(C)S/C1=N/N=C1\C(=O)Nc2ccc([N+](=O)[O-])cc21 ; value: >50 µg/mL
CC(C)(C)c1ccc(Cn2ccc3nc(-c4ccccc4)nc-3c2)cc1 ; value: 40 µg/mL
O=[N+]([O-])c1ccc2c(c1)c(N=NC(=S)NC1CCCCC1)c(O)n2CN1CCOCC1 ; value: 17 µg/mL
CCOC(=O)c1c(CS(=O)(=O)c2ccccc2)n(C)c2cc(-c3cccnc3)c(O)c(CN(C)C)c12 ; method: ATP ; value: 28.1 µM
O=C1Nc2ccc([N+](=O)[O-])cc2/C1=N/N=C1/SCC(=O)N1c1ccc(Br)cc1 ; value: 5 µg/mL
Fc1cccc(F)c1Cn1ccc2nc(-c3ccccc3)nc-2c1 ; value: 46 µg/mL
O=[N+]([O-])c1ccc2[nH]c(O)c(N=NC(=S)Nc3ccc(Cl)cc3)c2c1 ; value: 19 µg/mL
Brc1ccc(Cn2ccc3nc(CSc4ccccc4)nc-3c2)cc1 ; value: 31.7 µg/mL
CC(=O)O[C@H]1C[C@H](n2cc(/C(Cl)=C\I)c(=O)[nH]c2=O)O[C@@H]1CO ; method: neutral red ; value: >100 µM
CCOC(=O)c1c(CSc2ccccc2)n(C)c2cc(-c3ccncc3)c3c(c12)CN(C)CO3 ; method: ATP ; value: 22.2 µM
CCCC(C)NC(=O)[C@@H]1[C@H](O)[C@@H](O)CN1C(=O)c1cccc(N(C)C)c1 ; method: visual reading ; value: >300 µM
CC(=O)O[C@@H]1[C@H](OC(C)=O)[C@@H](CO)O[C@H]1n1cc(/C(I)=C\I)c(=O)[nH]c1=O ; method: neutral red ; value: >100 µM
C[C@H]1CC[C@H]2C(C)(C)[C@H](O)CC[C@]23Oc2c(c(O)cc4c2CNC4=O)C[C@]13C ; value: >65 µM
CCN1C(=O)CS/C1=N/N=C1\C(=O)Nc2ccc([N+](=O)[O-])cc21 ; value: 17 µg/mL
CC(=O)O[C@H]1CC[C@@]23Oc4c(c(O)cc5c4CNC5=O)C[C@]2(C)[C@@H](C)CC[C@H]3C1(C)C ; value: 44 µM
CC1S/C(=N/N=C2\C(=O)Nc3ccc([N+](=O)[O-])cc32)N(c2ccc(Cl)cc2)C1=O ; value: >50 µg/mL
CC12CCC(CC1)C(C)(C)O2 ; method: MTT ; value: 3000 µg/mL
CC(=O)O[C@H]1CC[C@@]23Oc4c(c(O)c(Cl)c5c4CNC5=O)C[C@]2(C)[C@@H](C)CC[C@H]3C1(C)C ; value: 20 µM